Reference: PMC11604653, “Adjuvants to the S1-subunit of the SARS-CoV-2 spike protein vaccine improve antibody and T cell responses and surrogate neutralization in mice” (2024)

Biological target: ectodomain of SARS-CoV-2 spike protein (SARS-CoV-2)
Assay: SEC

With “ectodomain of SARS-CoV-2 spike protein (domain or fragment)” the stoichiometry N was 3.
